Compound potency records, mixed from different reports. Data source: NIAID ChemDB in PubChem.

Common to all: growth or infection tests; organism: Herpes simplex virus 1

ECn: concentration that inhibits the pathogen or its effect by n%.

SMILES | dose | cells | strain or isolate | read by | endpoint | value
Nc1nc(=O)n([C@@H]2O[C@H](CO)[C@@H](O)[C@@H]2F)cc1I | - | HEL | KOS BVDU-resistant | cytopathic effect | EC50 | 9.9 µg/mL
CCOC(=O)P(=O)(O)OCCOCn1cnc2c(=O)[nH]c(N)nc21 | - | VERO | L2 | cytopathic effect | EC95 | 661 µM
O=C(O)CP(=O)(O)OC[C@H]1O[C@@H](n2cc(CCCl)c(=O)[nH]c2=O)C[C@@H]1O | 2.3 µM | VERO | BRAND | cytopathic effect | inhibition | >25%
O=S(=O)(Nc1ccccc1[Se][Se]c1ccccc1NS(=O)(=O)c1ccccc1)c1ccccc1 | - | - | - | - | MIC | 100 µg/mL
CCOC(=O)CP(=O)(OC)OC[C@H]1O[C@@H](n2cc(CCCl)c(=O)[nH]c2=O)C[C@@H]1O | 66 µM | VERO | TK- | cytopathic effect | inhibition | >25%
CC(C)=CCN1CC[C@@]2(C)c3cc(O)ccc3C[C@@H]1[C@H]2C | - | HeLa | KOS | cytopathic effect | EC50 | >200 µg/mL
CCCCCCCCC#Cc1cn(COCCO)c(=O)[nH]c1=O | - | VERO | F | plaque count | EC90 | >100 µM
CCOC(=O)P(=O)(OC)OC[C@H]1O[C@@H](n2cc(CCCl)c(=O)[nH]c2=O)C[C@@H]1O | 0.7 µM | VERO | BRAND | cytopathic effect | inhibition | >25%
NC(=O)c1nnn([C@@H]2C[C@H](CO)C[C@H]2O)c1N | - | VERO | F | plaque count | EC90 | >100 µM
Nc1nc2c(ncn2COC(CO)CO)c(=O)[nH]1 | - | HEL | KOS ACV-resistant | cytopathic effect | EC50 | 7.23 µg/mL
Cc1cn([C@H]2C[C@H](N=[N+]=[N-])[C@@H](CO)O2)c(=O)[nH]c1=O | - | VERO | F | plaque count | EC90 | >10 µM
CCCNC(=S)Nc1ccccc1[Se][Se]c1ccccc1NC(=S)NCCC | - | - | - | - | MIC | >1000 µg/mL
Nc1ccn(C[C@@H](CO)OCP(=O)(O)O)c(=O)n1 | - | HEL | KOS HPMPA-resistant | cytopathic effect | EC50 | 2.7 µg/mL
COP(=O)(CC(=O)O[C@H]1C[C@H](n2cc(CCCl)c(=O)[nH]c2=O)O[C@@H]1CO)OC | 227 µM | VERO | TK- | cytopathic effect | inhibition | >25%
CCCCCc1ccc(-c2cc3cn(C/C=C/C(O)CO)c(=O)nc3o2)cc1 | - | VERO | F | plaque count | EC90 | >100 µM
CCOC(=O)CP(=O)(OC)OC[C@H]1O[C@@H](n2cc(I)c(=O)[nH]c2=O)C[C@@H]1O | 57.9 µM | VERO | TK- | cytopathic effect | inhibition | >25%
O=C(O)P(=O)(O)O | - | HEL | KOS HPMPA-resistant | cytopathic effect | EC50 | 27.2 µg/mL
CCCCCC#Cc1cn(COCCO)c(=O)[nH]c1=O | - | VERO | F | plaque count | EC90 | >100 µM
NC(=O)c1cn([C@@H]2C[C@H](CCP(=O)(O)O)C[C@H]2O)nn1 | - | VERO | F | plaque count | EC90 | >100 µM
O=C(O)P(=O)(O)O | - | HeLa | PFA-resistant-1 | virus yield | EC90 | 900 µM
CCCCCCCCC#Cc1cn(CC=C(CO)CO)c(=O)[nH]c1=O | - | VERO | F | plaque count | EC90 | >100 µM
CC(=O)NS(=O)(=O)c1ccc(NC(=O)CCC[Se][Se]CCCC(=O)Nc2ccc(S(=O)(=O)NC(C)=O)cc2)cc1 | - | - | - | - | MIC | >1000 µg/mL
Nc1nc(N)c2ncn(CCOCP(=O)(O)O)c2n1 | - | HEL | KOS BVDU-resistant | cytopathic effect | EC50 | 6.8 µg/mL
N[C@H]1[C@@H](O[C@@H]2[C@@H](O)[C@H](O[C@H]3OC[C@@H](O)[C@H](O)[C@H]3N)[C@@H](N)C[C@H]2N)O[C@H](CO)[C@@H](O)[C@@H]1O | - | HeLa | KOS | cytopathic effect | EC50 | >100 µg/mL
COC(=O)c1cn([C@@H]2C[C@H](CCP(=O)(O)O)C[C@H]2O)nn1 | - | VERO | F | plaque count | EC90 | >100 µM
O=c1[nH]c(=O)n([C@H]2C[C@H](O)[C@@H](CO)O2)cc1CCCl | 0.03 µM | VERO | BRAND | cytopathic effect | inhibition | >25%
Nc1nc2c(ncn2COCCO)c(=O)[nH]1 | - | GMK | - | plaque count | EC90 | 0.59 µg/mL
CC(=O)c1cn(C/C=C/C(O)CO)c(=O)[nH]c1=O | - | VERO | F | plaque count | EC90 | >100 µM
NC(=O)c1nnn([C@@H]2C[C@H](CCP(=O)(O)O)C[C@H]2O)c1N | - | VERO | F | plaque count | EC90 | >100 µM
Nc1nc2c(ncn2COCCO)c(=O)[nH]1 | 0.01 µM | VERO | BRAND | cytopathic effect | inhibition | >25%
C/C=C/C=C/[C@@H]1O[C@](O)([C@H](OC)C(=O)NC/C=C/C=C(/C)[C@@H](OC)[C@@H](C)[C@@H]2O[C@H](/C=C/C=C/C=C(\C)C(=O)c3c(O)cc[nH]c3=O)[C@H](O)[C@@H]2O)[C@H](O)[C@H](O)C1(C)C | - | HeLa | KOS | cytopathic effect | EC50 | >100 µg/mL
Nc1ncnc2c1ncn2CCOCP(=O)(O)O | - | HeLa | PMEA-resistant-1 | virus yield | EC90 | >2000 µM

The first 5 rows once more:

SMILES,dose,cells,strain or isolate,read by,endpoint,value
Nc1nc(=O)n([C@@H]2O[C@H](CO)[C@@H](O)[C@@H]2F)cc1I,-,HEL,KOS BVDU-resistant,cytopathic effect,EC50,9.9 µg/mL
CCOC(=O)P(=O)(O)OCCOCn1cnc2c(=O)[nH]c(N)nc21,-,VERO,L2,cytopathic effect,EC95,661 µM
O=C(O)CP(=O)(O)OC[C@H]1O[C@@H](n2cc(CCCl)c(=O)[nH]c2=O)C[C@@H]1O,2.3 µM,VERO,BRAND,cytopathic effect,inhibition,>25%
O=S(=O)(Nc1ccccc1[Se][Se]c1ccccc1NS(=O)(=O)c1ccccc1)c1ccccc1,-,-,-,-,MIC,100 µg/mL
CCOC(=O)CP(=O)(OC)OC[C@H]1O[C@@H](n2cc(CCCl)c(=O)[nH]c2=O)C[C@@H]1O,66 µM,VERO,TK-,cytopathic effect,inhibition,>25%

Lines come from different laboratories, so protocols vary. Inhibition is in % at the dose shown (toxicity tests: loss of growth or viability). An empty or dashed field is not shown.